{"source": "patent US20200262877A1", "about": "“ION CHANNEL-BINDING PEPTIDES AND METHODS OF USE THEREOF” (priority 2017, published 2020)", "binders": {"B1": {"name": "SEQ ID NO: 5 (peptide)", "peptide": "GSGVPINVKCRGSRDCLDPCKKAGMRFGKCINSKCHCTP", "modifications": "not checked"}, "B2": {"name": "SEQ ID NO: 6 (peptide)", "peptide": "GSVRIPVSCKHSGQCLKPCKDAGMRFGKCMNGKCDCTPK", "modifications": "not checked"}}, "test_in_all_cases": "cell-based or functional assay", "key": {"5HT3a": {"molecular_target": "5HT3a"}, "Cav2.1": {"molecular_target": "Cav2.1"}, "Cav2.2": {"molecular_target": "Cav2.2"}, "GABA": {"molecular_target": "GABA"}, "Kir2.1": {"molecular_target": "Kir2.1"}, "Kv1.1": {"molecular_target": "Kv1.1"}, "Kv1.2": {"molecular_target": "Kv1.2"}, "Kv1.3": {"molecular_target": "Kv1.3"}, "[1]": {"molecular_target": "Kv1.3 potassium channel (human KCNA3 gene) (human), P22001"}, "[2]": {"molecular_target": "Kv1.5 potassium channel (human KCNA5 gene) (human), P22460"}, "Kv2.1": {"molecular_target": "Kv2.1"}, "NR2A": {"molecular_target": "NR2A"}, "NR2B": {"molecular_target": "NR2B"}, "[3]": {"molecular_target": "Nav1.3 sodium channel (human SCN3A gene) (human), Q9NY46"}, "[4]": {"molecular_target": "Nav1.4 sodium channel (human SCN4A gene) (human), P35499"}, "Nav1.5": {"molecular_target": "Nav1.5"}, "[5]": {"molecular_target": "Nav1.5 cardiac sodium channel (human SCN5A gene) (human), Q14524"}, "Nav1.7": {"molecular_target": "Nav1.7"}, "[6]": {"molecular_target": "Nav1.7 sodium channel (human SCN9A gene) (human), Q15858"}, "TRPA1": {"molecular_target": "TRPA1"}, "TRPV1": {"molecular_target": "TRPV1"}, "hERG, Q12809": {"molecular_target": "T1, hERG, Q12809", "T1 chain": "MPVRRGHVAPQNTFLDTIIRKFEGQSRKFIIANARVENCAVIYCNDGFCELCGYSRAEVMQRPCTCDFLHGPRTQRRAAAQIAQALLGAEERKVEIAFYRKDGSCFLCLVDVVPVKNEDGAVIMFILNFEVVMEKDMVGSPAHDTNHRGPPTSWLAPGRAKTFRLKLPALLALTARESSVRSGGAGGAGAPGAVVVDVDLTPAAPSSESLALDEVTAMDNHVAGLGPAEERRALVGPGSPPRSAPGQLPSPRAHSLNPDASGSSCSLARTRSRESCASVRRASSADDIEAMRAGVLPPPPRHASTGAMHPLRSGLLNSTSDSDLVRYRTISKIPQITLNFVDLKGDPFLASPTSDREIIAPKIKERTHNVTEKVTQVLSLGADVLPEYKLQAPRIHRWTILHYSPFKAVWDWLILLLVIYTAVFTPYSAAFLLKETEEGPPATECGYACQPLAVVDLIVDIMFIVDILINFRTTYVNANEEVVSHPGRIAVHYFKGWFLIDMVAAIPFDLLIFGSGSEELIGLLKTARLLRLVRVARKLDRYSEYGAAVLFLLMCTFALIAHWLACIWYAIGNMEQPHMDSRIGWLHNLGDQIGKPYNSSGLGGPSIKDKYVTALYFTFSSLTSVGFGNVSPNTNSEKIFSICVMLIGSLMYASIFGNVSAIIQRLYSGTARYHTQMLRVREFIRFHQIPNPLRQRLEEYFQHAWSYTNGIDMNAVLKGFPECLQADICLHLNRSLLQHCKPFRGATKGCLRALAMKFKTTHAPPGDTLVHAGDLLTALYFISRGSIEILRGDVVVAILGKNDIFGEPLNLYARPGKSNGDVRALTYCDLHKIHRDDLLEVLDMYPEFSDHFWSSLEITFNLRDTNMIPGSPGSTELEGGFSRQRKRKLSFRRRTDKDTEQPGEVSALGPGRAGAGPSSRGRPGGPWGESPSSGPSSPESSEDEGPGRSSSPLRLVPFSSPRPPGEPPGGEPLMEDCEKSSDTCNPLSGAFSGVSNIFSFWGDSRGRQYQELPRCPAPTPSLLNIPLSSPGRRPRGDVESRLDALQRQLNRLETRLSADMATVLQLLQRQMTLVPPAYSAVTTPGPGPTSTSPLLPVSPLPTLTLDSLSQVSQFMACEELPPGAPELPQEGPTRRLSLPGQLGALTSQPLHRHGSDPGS"}, "α3β4 nicotinic receptor": {"molecular_target": "α3β4 nicotinic receptor"}, "α4β2 nicotinic receptor": {"molecular_target": "α4β2 nicotinic receptor"}}}
{"binder": "B1", "values": [{"measurement": "% activity at 20 µM", "setting": "5HT3a", "value": 80, "unit": "%"}, {"measurement": "% activity at 0.2 µM", "setting": "Cav2.1", "value": 100, "unit": "%"}, {"measurement": "% activity at 20 µM", "setting": "Cav2.1", "value": 121, "unit": "%"}, {"measurement": "% activity at 20 µM", "setting": "Cav2.2", "value": 117, "unit": "%"}, {"measurement": "% activity at 0.2 µM", "setting": "GABA", "value": 109, "unit": "%"}, {"measurement": "% activity at 20 µM", "setting": "GABA", "value": 114, "unit": "%"}, {"measurement": "% activity at 0.2 µM", "setting": "Kir2.1", "value": 103, "unit": "%"}, {"measurement": "% activity at 20 µM", "setting": "Kv1.1", "value": 55, "unit": "%"}, {"measurement": "% activity at 0.2 µM", "setting": "Kv1.2", "value": 89, "unit": "%"}, {"measurement": "% activity at 20 µM", "setting": "Kv1.2", "value": 73, "unit": "%"}, {"measurement": "% activity at 0.2 µM", "setting": "Kv1.3", "value": 98, "unit": "%"}, {"measurement": "% activity at 20 µM", "setting": "Kv1.3", "value": 28, "unit": "%"}, {"measurement": "IC50 of current inhibition, TP1", "setting": "[1]", "value": "> 1000", "unit": "nM"}, {"measurement": "IC50 of current inhibition, TP6", "setting": "[1]", "value": "> 1000", "unit": "nM"}, {"measurement": "IC50 of current inhibition, TP1", "setting": "[2]", "value": "> 1000", "unit": "nM"}, {"measurement": "IC50 of current inhibition, TP6", "setting": "[2]", "value": "> 1000", "unit": "nM"}, {"measurement": "% activity at 0.2 µM", "setting": "Kv2.1", "value": 110, "unit": "%"}, {"measurement": "% activity at 20 µM", "setting": "Kv2.1", "value": 109, "unit": "%"}, {"measurement": "% activity at 0.2 µM", "setting": "NR2A", "value": 109, "unit": "%"}, {"measurement": "% activity at 0.2 µM", "setting": "NR2B", "value": 112, "unit": "%"}, {"measurement": "% activity at 20 µM", "setting": "NR2B", "value": 95, "unit": "%"}, {"measurement": "IC50 of current inhibition, TP1", "setting": "[3]", "value": "> 1000", "unit": "nM"}, {"measurement": "IC50 of current inhibition, TP2", "setting": "[3]", "value": "> 1000", "unit": "nM"}, {"measurement": "IC50 of current inhibition, TP1", "setting": "[4]", "value": "> 1000", "unit": "nM"}, {"measurement": "IC50 of current inhibition, TP2", "setting": "[4]", "value": "> 1000", "unit": "nM"}, {"measurement": "% activity at 0.2 µM (TP1)", "setting": "Nav1.5", "value": 107, "unit": "%"}, {"measurement": "% activity at 0.2 µM (TP2)", "setting": "Nav1.5", "value": 107, "unit": "%"}, {"measurement": "% activity at 20 µM (TP1)", "setting": "Nav1.5", "value": 103, "unit": "%"}, {"measurement": "% activity at 20 µM (TP2)", "setting": "Nav1.5", "value": 105, "unit": "%"}, {"measurement": "IC50 of current inhibition, TP1", "setting": "[5]", "value": "> 1000", "unit": "nM"}, {"measurement": "IC50 of current inhibition, TP2", "setting": "[5]", "value": "> 1000", "unit": "nM"}, {"measurement": "% activity at 0.2 µM (TP1)", "setting": "Nav1.7", "value": 98, "unit": "%"}, {"measurement": "% activity at 0.2 µM (TP2)", "setting": "Nav1.7", "value": 109, "unit": "%"}, {"measurement": "% activity at 20 µM (TP1)", "setting": "Nav1.7", "value": 79, "unit": "%"}, {"measurement": "% activity at 20 µM (TP2)", "setting": "Nav1.7", "value": 66, "unit": "%"}, {"measurement": "IC50 of current inhibition, TP1", "setting": "[6]", "value": "> 1000", "unit": "nM"}, {"measurement": "IC50 of current inhibition, TP2", "setting": "[6]", "value": "> 1000", "unit": "nM"}, {"measurement": "% activity at 0.2 µM", "setting": "TRPA1", "value": 119, "unit": "%"}, {"measurement": "% activity at 20 µM", "setting": "TRPA1", "value": 75, "unit": "%"}, {"measurement": "% activity at 0.2 µM", "setting": "TRPV1", "value": 101, "unit": "%"}, {"measurement": "% activity at 20 µM", "setting": "TRPV1", "value": 101, "unit": "%"}, {"measurement": "% activity at 0.2 µM", "setting": "hERG, Q12809", "value": 106, "unit": "%"}, {"measurement": "% activity at 20 µM", "setting": "hERG, Q12809", "value": 67, "unit": "%"}, {"measurement": "% activity at 0.2 µM", "setting": "α3β4 nicotinic receptor", "value": 104, "unit": "%"}, {"measurement": "% activity at 20 µM", "setting": "α3β4 nicotinic receptor", "value": 90, "unit": "%"}, {"measurement": "% activity at 0.2 µM", "setting": "α4β2 nicotinic receptor", "value": 83, "unit": "%"}, {"measurement": "% activity at 20 µM", "setting": "α4β2 nicotinic receptor", "value": 93, "unit": "%"}]}
{"binder": "B2", "values": [{"measurement": "% activity at 0.2 µM", "setting": "5HT3a", "value": 85, "unit": "%"}, {"measurement": "% activity at 20 µM", "setting": "5HT3a", "value": 84, "unit": "%"}, {"measurement": "% activity at 20 µM", "setting": "Cav2.1", "value": 111, "unit": "%"}, {"measurement": "% activity at 20 µM", "setting": "Cav2.2", "value": 107, "unit": "%"}, {"measurement": "% activity at 20 µM", "setting": "Kv1.1", "value": 30, "unit": "%"}, {"measurement": "% activity at 0.2 µM", "setting": "Kv1.2", "value": 81, "unit": "%"}, {"measurement": "% activity at 20 µM", "setting": "Kv1.2", "value": 85, "unit": "%"}, {"measurement": "% activity at 0.2 µM", "setting": "Kv1.3", "value": 25, "unit": "%"}, {"measurement": "% activity at 20 µM", "setting": "Kv1.3", "value": 0, "unit": "%"}, {"measurement": "IC50 of current inhibition, TP1", "setting": "[1]", "value": 895, "unit": "nM"}, {"measurement": "IC50 of current inhibition, TP6", "setting": "[1]", "value": 894, "unit": "nM"}, {"measurement": "IC50 of current inhibition, TP1", "setting": "[2]", "value": "> 1000", "unit": "nM"}, {"measurement": "IC50 of current inhibition, TP6", "setting": "[2]", "value": "> 1000", "unit": "nM"}, {"measurement": "% activity at 20 µM", "setting": "Kv2.1", "value": 124, "unit": "%"}, {"measurement": "% activity at 20 µM", "setting": "NR2B", "value": 75, "unit": "%"}, {"measurement": "IC50 of current inhibition, TP1", "setting": "[3]", "value": "> 1000", "unit": "nM"}, {"measurement": "IC50 of current inhibition, TP2", "setting": "[3]", "value": "> 1000", "unit": "nM"}, {"measurement": "IC50 of current inhibition, TP1", "setting": "[4]", "value": "> 1000", "unit": "nM"}, {"measurement": "IC50 of current inhibition, TP2", "setting": "[4]", "value": "> 1000", "unit": "nM"}, {"measurement": "% activity at 20 µM (TP1)", "setting": "Nav1.5", "value": 116, "unit": "%"}, {"measurement": "% activity at 20 µM (TP2)", "setting": "Nav1.5", "value": 120, "unit": "%"}, {"measurement": "IC50 of current inhibition, TP1", "setting": "[5]", "value": "> 1000", "unit": "nM"}, {"measurement": "IC50 of current inhibition, TP2", "setting": "[5]", "value": "> 1000", "unit": "nM"}, {"measurement": "IC50 of current inhibition, TP1", "setting": "[6]", "value": "> 1000", "unit": "nM"}, {"measurement": "IC50 of current inhibition, TP2", "setting": "[6]", "value": "> 1000", "unit": "nM"}, {"measurement": "% activity at 0.2 µM", "setting": "TRPA1", "value": 126, "unit": "%"}, {"measurement": "% activity at 0.2 µM", "setting": "hERG, Q12809", "value": 107, "unit": "%"}, {"measurement": "% activity at 20 µM", "setting": "hERG, Q12809", "value": 71, "unit": "%"}, {"measurement": "% activity at 0.2 µM", "setting": "α3β4 nicotinic receptor", "value": 100, "unit": "%"}, {"measurement": "% activity at 0.2 µM", "setting": "α4β2 nicotinic receptor", "value": 71, "unit": "%"}]}
